We go through one molecule from the supplement of paper PMC4206467.

The entries are a selection whose mix differs from that of the whole data set.

The assay deals with Perkinsus marinus PRA240. Kind of assay: ATP content (proliferation) relative to DMSO control; higher = more parasite growth (less inhibition). The settings on record: 20 µM; 4 days. The protocol:
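Perkinsus marinus PRA240 trophozoites (2-5x10^6 cells/ml, 100 µl, 96-well) were exposed once to MMV Malaria Box compounds at 20 µM (0.1% DMSO) in triplicate. ATP content (ATPlite bioluminescence) was read at day 4 post-exposure and normalised to DMSO + cells control wells (100% activity). Compounds were identified by joining plate and well to the Malaria Box list.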
With `c1ccc2c(NCCCCCCNc3c4c(nc5ccccc35)CCCC4)c3c(nc2c1)CCCC3`, the ATP content came out at 162%.
